At least one result comes from cells or an extract, where the contact may be indirect.
Molecular target: endogenous TDP-43 (HeLa nuclear extract, phosphocellulose fraction A) (Homo sapiens) (UniProt Q13148)
Experiment: EMSA
Settings: shift-western with anti-TDP-43; 43 kDa species also in UV crosslinking; protein in an extract; label: 32P

Sequences of proteins named here, by UniProt entry; tags and fusion partners are left off.
UniProt Q13148, whole entry: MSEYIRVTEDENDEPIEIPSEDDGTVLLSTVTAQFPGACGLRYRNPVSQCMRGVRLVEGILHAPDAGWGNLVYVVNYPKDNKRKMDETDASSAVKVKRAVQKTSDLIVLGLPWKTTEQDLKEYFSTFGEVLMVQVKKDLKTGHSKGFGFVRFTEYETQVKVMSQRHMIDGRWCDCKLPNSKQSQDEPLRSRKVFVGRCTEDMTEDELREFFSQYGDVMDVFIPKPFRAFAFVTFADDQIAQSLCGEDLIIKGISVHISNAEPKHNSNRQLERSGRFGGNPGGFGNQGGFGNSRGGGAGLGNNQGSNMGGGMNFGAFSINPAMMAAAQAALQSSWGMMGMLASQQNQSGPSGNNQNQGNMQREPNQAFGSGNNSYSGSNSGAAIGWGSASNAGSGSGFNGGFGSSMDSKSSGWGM

“CTGCTTTTTGCCTGTACTGGGTCTCTCTGGTTAGACCAGATCTGAG (double strand) [HIV-1 LTR -18/+28 (TAR DNA) WT]”: binds.

Source: patent US5688511
